Compound potency records, mixed from different reports. Data source: NIAID ChemDB in PubChem.

Shared fields: tests in culture; agent: Candida albicans

MIC50, MIC90 and the like: level of inhibition, or share of isolates inhibited. ECn: concentration that inhibits the pathogen or its effect by n%. Inhibition is in % at the dose shown (toxicity tests: loss of growth or viability). Rows are shuffled and stem from different studies. An empty or dashed field is not shown.

structure	strain or isolate	method	setting	measure	dose	result
C[C@H]1[C@H](O)[C@@H](C)/C=C/C=C/C=C/C=C/C=C/C=C/C=C/[C@H](O[C@@H]2O[C@H](C)[C@@H](O)[C@H](N)[C@@H]2O)C[C@@H]2O[C@](O)(C[C@@H](O)C[C@@H](O)CC[C@H](O)[C@@H](O)C[C@@H](O)CC(=O)O[C@H]1C)C[C@H](O)[C@H]2C(=O)O	Fluconazole-resistant 4 isolates pooled	-	-	MFC50	-	0.5 µg/mL
C[C@@H](N1CCN(Cc2cn(-c3ccc(F)cc3)c3ccccc23)CC1)[C@](O)(Cn1cncn1)c1ccc(F)cc1F	ATCC 36082	resazurin	-	MIC80	-	0.125 µg/mL
OC(CN1CCN(c2ccc(OCc3ccncc3)cc2)CC1)(Cn1cncn1)c1ccc(F)cc1F	303052	-	-	MIC80	-	≤0.031 µg/mL
C[C@@H](N1CCN(Cc2cn(Cc3ccc(Cl)cc3Cl)c3ccccc23)CC1)[C@](O)(Cn1cncn1)c1ccc(F)cc1F	ATCC MYA-1003	resazurin	-	MIC80	-	4 µg/mL
Cc1ccc(-n2cc(C(C)(C)O)nn2)cc1C	URM 4388	broth dilution	-	inhibition	2048 µg/mL	0%
CC(=O)N1CCN(c2ccc(OC[C@H]3CO[C@](Cn4ccnc4)(c4ccc(Cl)cc4Cl)O3)cc2)CC1	10 isolates	broth dilution	pH 7	EC90	-	0.03 µg/mL
CC(C)(O)c1cn(-c2cccc3ccccc23)nn1	URM 4126	broth dilution	-	inhibition	2048 µg/mL	0%
C[C@@H](N1CCN(Cc2cn(Cc3ccc(Cl)cc3)c3c(Cl)cccc23)CC1)[C@](O)(Cn1cncn1)c1ccc(F)cc1F	ATCC 36082	resazurin	-	MIC80	-	0.125 µg/mL
Clc1ccc(COC(Cn2ccnc2)c2ccc(Cl)cc2Cl)c(Cl)c1	10 isolates	broth dilution	pH 6	EC90	-	4 µg/mL
CC(C)(O)c1cn(-c2ccc([N+](=O)[O-])cc2)nn1	URM 4384	broth dilution	-	inhibition	2048 µg/mL	0%
CC(C)N=C(N)c1ccc2nc(-c3ccc4c(c3)Cc3cc(-c5nc6ccc(C(N)=NC(C)C)cc6[nH]5)ccc3-4)[nH]c2c1	A39	-	-	MFC	-	1.56 µg/mL
C[C@@H](N1CCN(Cc2cn(Cc3ccc(F)cc3F)c3c(F)cccc23)CC1)[C@](O)(Cn1cncn1)c1ccc(F)cc1F	ATCC 90028	resazurin	-	MIC80	-	0.125 µg/mL
NCCCC[C@H](NC(=O)[C@H](Cc1c[nH]c2ccccc12)NC(=O)[C@H](CCCCN)NC(=O)[C@@H](N)CCCCN)C(=O)O	ATCC 10231	-	-	inhibition	100 µM	2%
C=CCc1ccc(O)c(OC)c1	2281	turbidity	-	MIC90	-	475 µg/mL
CC(C)(O)c1cn(-c2ccc3ccccc3c2)nn1	URM 4986	broth dilution	-	inhibition	2048 µg/mL	0%
CC[C@@H]([C@H](C)O)n1ncn(-c2ccc(N3CCN(c4ccc(OC[C@@H]5CO[C@@](Cn6cncn6)(c6ccc(F)cc6F)C5)cc4)CC3)cc2)c1=O	15 isolates	broth dilution	pH 4	EC90	-	0.03 µg/mL
C=CCn1cc(CN2CCN([C@H](C)[C@](O)(Cn3cncn3)c3ccc(F)cc3F)CC2)c2ccc(Cl)cc21	ATCC MYA-1003	resazurin	-	MIC80	-	8 µg/mL
CCC(C)CC(C)CCCCCCCCC(=O)N[C@H]1C[C@@H](O)[C@H](NCCN)NC(=O)[C@@H]2[C@@H](O)CCN2C(=O)[C@H]([C@H](O)CCN)NC(=O)[C@H]([C@H](O)[C@@H](O)c2ccc(O)cc2)NC(=O)[C@@H]2C[C@@H](O)CN2C(=O)[C@H]([C@@H](C)O)NC1=O	10 isolates	broth dilution	pH 6	EC90	-	0.06 µg/mL
C[C@@H](N1CCN(Cc2cn(Cc3ccc(F)cc3F)c3cc(Cl)ccc23)CC1)[C@](O)(Cn1cncn1)c1ccc(F)cc1F	ATCC 64548	resazurin	-	MIC80	-	0.125 µg/mL

Repeating the first 3 entries:

structure | strain or isolate | method | setting | measure | dose | result
C[C@H]1[C@H](O)[C@@H](C)/C=C/C=C/C=C/C=C/C=C/C=C/C=C/[C@H](O[C@@H]2O[C@H](C)[C@@H](O)[C@H](N)[C@@H]2O)C[C@@H]2O[C@](O)(C[C@@H](O)C[C@@H](O)CC[C@H](O)[C@@H](O)C[C@@H](O)CC(=O)O[C@H]1C)C[C@H](O)[C@H]2C(=O)O | Fluconazole-resistant 4 isolates pooled | - | - | MFC50 | - | 0.5 µg/mL
C[C@@H](N1CCN(Cc2cn(-c3ccc(F)cc3)c3ccccc23)CC1)[C@](O)(Cn1cncn1)c1ccc(F)cc1F | ATCC 36082 | resazurin | - | MIC80 | - | 0.125 µg/mL
OC(CN1CCN(c2ccc(OCc3ccncc3)cc2)CC1)(Cn1cncn1)c1ccc(F)cc1F | 303052 | - | - | MIC80 | - | ≤0.031 µg/mL